Results deposited as PubChem BioAssay AID1259414 (Drosophila RNAi Screening Center, 2018).
The deposit covers about 24,000 reagents; below is a random part of those with a known target gene and a result. In the full data, about 1,210 (5%) are marked active. 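Inactive calls also include excluded dsRNAs with several or no targets, genes unexpressed in JW18, and well A1, regardless of score.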 The numbers tell different reagents against one gene apart. A plus sign joins genes that one reagent is predicted to hit.

Purpose: 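Host factors increasing or decreasing Wolbachia levels in cultured fly cells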 (primary screen)
Cells: Drosophila JW18 cells infected with Wolbachia
Reagents: long dsRNA against Drosophila genes, 0.25 µg dsRNA per well of a 384-well plate
Timing: 5 days
Conditions: cells persistently infected with Wolbachia before knock-down; no added drug
Detection: 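Automated imaging of bacterial rRNA staining divided by host cell count, reported as plate-normalised robust z-score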
Scale: Wolbachia per cell robust z: higher = more Wolbachia per host cell than the plate typical
Rule for the call: 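Hit when robust z is 1.5 or more, or -1.5 or less, in at least two of three replicates; excludes dsRNAs with several or no targets, genes not expressed in JW18 and well A1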

| target | dsRNA no. | Wolbachia per cell robust z, rep 1 | Wolbachia per cell robust z, rep 2 | Wolbachia per cell robust z, rep 3 | call |
| --- | --- | --- | --- | --- | --- |
| CG2921 | 1 | -0.644 | -0.0324 | -0.85 | inactive |
| CG2921 | 2 | 0.921 | 0.922 | 0.00255 | inactive |
| Gr68a | 1 | -0.425 | 0.24 | 1.01 | inactive |
| 5-HT1B | 1 | 0.976 | -2.21 | 1.83 | inactive |
| 5-HT1B | 2 | 1.04 | 2.84 | 4.8 | inactive |
| 5-HT1B | 3 | -0.524 | -0.484 | -0.255 | inactive |
| CG10352 | 1 | -1.14 | -0.619 | -0.434 | inactive |
| CG10352 | 2 | -1.92 | 0.347 | -1.95 | inactive |
| CG5986 | 1 | -0.485 | 0.179 | -0.396 | inactive |
| CG5986 | 2 | -0.432 | -0.66 | 0.193 | inactive |
| dar1 | 1 | 0.491 | 0.537 | 1.24 | inactive |
| CG6985 | 1 | -0.495 | -5.66 | -0.802 | inactive |
| CG6985 | 2 | -0.0123 | 0.964 | 0.161 | inactive |
| CG31697 | 1 | -1.7 | 0.268 | -0.804 | inactive |
| IFT52 | 1 | 1.3 | -0.195 | 0.217 | inactive |
| IFT52 | 2 | -1.12 | -0.585 | -0.398 | inactive |
| S-Lap7 | 1 | 0.117 | 0.35 | 0.565 | inactive |
| S-Lap7 | 2 | -4.69 | -1.08 | -1.36 | inactive |
| CG14229 | 1 | 1.23 | 1.94 | 0.782 | inactive |
| CG14229 | 2 | 0.338 | 0.353 | 0.437 | inactive |
| Cyp6a18 | 1 | 0.00552 | 1.16 | 0.353 | inactive |
| Pp2B-14D | 1 | 1.98 | 0.823 | 0.471 | inactive |
| Pp2B-14D | 2 | -2.9 | -3.56 | 0.54 | active |
| Tgi | 1 | 0.916 | -0.956 | 1.05 | inactive |
| Tgi | 2 | 1.03 | 2.01 | 0.116 | inactive |
| Tgi | 3 | -0.568 | -2.1 | -1.02 | inactive |
| Acsx1L | 1 | -1.67 | 0.455 | 0.474 | inactive |
| Acsx1L | 2 | -1.21 | 0.622 | -0.407 | inactive |
| Ptp10D | 1 | -0.699 | -1.38 | -0.1 | inactive |
| Ptp10D | 2 | -1.28 | -1.11 | -0.78 | inactive |
| CG4278 | 1 | -0.668 | -1.21 | -0.876 | inactive |
| cas | 1 | -1.73 | -1.36 | -0.461 | inactive |
| cas | 2 | -0.57 | -0.032 | -1.3 | inactive |
| cas | 3 | -0.254 | 0.42 | 1.04 | inactive |
| Hsp67Bc | 1 | 0.767 | -0.774 | -0.579 | inactive |
| Hsp67Bc | 2 | -0.16 | 0.499 | 0.294 | inactive |
| CG31272 | 1 | 0.34 | -1.82 | -3.93 | inactive |
| CG34181 | 1 | -1 | -5.98 | -0.451 | inactive |
| JYalpha | 1 | 0.979 | 1.31 | 1.39 | inactive |
| JYalpha | 2 | 0.899 | 0.162 | -0.0554 | inactive |
| CG32750 | 1 | -1.14 | -1.08 | -2.57 | inactive |
| CG3544 | 1 | 1.32 | 1.2 | 0.298 | inactive |

As entered above.
Result for Hsp67Bc #1 under “Wolbachia per cell robust z, rep 1”: 0.767
Value of cas #1 in “Wolbachia per cell robust z, rep 1”: -1.73
Value for S-Lap7 #2 in “Wolbachia per cell robust z, rep 2”: -1.08
Result of Gr68a in “call”: inactive
For “Wolbachia per cell robust z, rep 3”, Tgi #2 reads 0.116
Value for CG2921 #1 in “Wolbachia per cell robust z, rep 2”: -0.0324

Additional records follow:
| target | dsRNA no. | Wolbachia per cell robust z, rep 1 | Wolbachia per cell robust z, rep 2 | Wolbachia per cell robust z, rep 3 | call |
| --- | --- | --- | --- | --- | --- |
| CG12672 | 1 | -0.428 | -0.163 | -2.46 | inactive |
| CG12672 | 2 | -6.27 | -0.338 | -1.17 | inactive |
| CheB93b | 1 | 0.352 | -0.96 | -1.55 | inactive |
| CG31219 | 1 | 0.482 | -1.19 | -1.22 | inactive |
| Nfs1 | 1 | 2.11 | -1.14 | -0.671 | inactive |
| kar | 1 | -0.972 | -0.932 | -6.15 | inactive |
| nonC | 1 | -0.779 | 0.0177 | -0.365 | inactive |
| nonC | 2 | 0.524 | -0.416 | -0.718 | inactive |
| CG4956 | 1 | -0.626 | 0.54 | -0.447 | inactive |
| CG4956 | 2 | -0.862 | -0.624 | -0.477 | inactive |
| CG16985 | 1 | -2.48 | -0.954 | -0.304 | inactive |
| Rtc1 | 1 | -0.0736 | -0.37 | 0.106 | inactive |
| SmydA-1 | 1 | -1.71 | 0.275 | -1.62 | active |
| gsb-n | 1 | -0.219 | -0.596 | 0.377 | inactive |
| gsb-n | 2 | 0.747 | 0.347 | -0.592 | inactive |
| CG7829 | 1 | 0.27 | -0.621 | 0.237 | inactive |
| CG7829 | 2 | 0.79 | -0.338 | -0.31 | inactive |
| CG43326 + CG43325 | 1 | 1.11 | 1.01 | -5.25 | inactive |
| AhcyL1 | 1 | 1.02 | 0.773 | 0.447 | inactive |
| AhcyL1 | 2 | -2.34 | -5.06 | -3.95 | inactive |
| Hr51 | 1 | -1.79 | -0.0846 | -0.00145 | inactive |
| Hr51 | 2 | 0.0996 | 0.423 | -1.37 | inactive |
| Pgant9 | 1 | -1.05 | -0.0158 | -0.369 | inactive |
| Pgant9 | 2 | -2.58 | -0.963 | -0.431 | inactive |
| Pgant9 | 3 | -1.46 | -0.19 | -0.135 | inactive |
| Pgant9 | 4 | -2.27 | 0.7 | -2.61 | active |
| Pgant9 | 5 | 0.481 | 0.844 | -0.164 | inactive |
| Pgant9 | 6 | -0.317 | -0.125 | -0.0036 | inactive |
| CG33453 | 1 | -0.0408 | 0.697 | 0.625 | inactive |
| CG33453 | 2 | -1.14 | 0.519 | 0.956 | inactive |
| ATPsynC | 1 | 2.57 | -9.18 | -0.784 | inactive |
| ZAP3 | 1 | -0.487 | 0.597 | -0.659 | inactive |
| ZAP3 | 2 | -1.96 | -2.13 | -0.861 | active |
| ZAP3 | 3 | -1.26 | -0.291 | -0.327 | inactive |
| CG1316 | 1 | 0.654 | 0.476 | 0.234 | inactive |
| Myo28B1 | 1 | 0.817 | -0.112 | -2.57 | inactive |
| Myo28B1 | 2 | -0.736 | 0.756 | 1.27 | inactive |
| CG34025 | 1 | 0.419 | -0.248 | 0.828 | inactive |
| HGTX | 1 | 0.33 | 0.471 | -0.314 | inactive |
| HGTX | 2 | 0.294 | -1.52 | -0.459 | inactive |
| CG43328 + CG43327 | 1 | -1.49 | -0.701 | -0.351 | inactive |
| Cyp318a1 | 1 | 0.692 | 1.06 | 0.376 | inactive |
| del | 1 | -3.66 | -0.548 | 0.129 | inactive |
| CG11779 | 1 | 1.5 | 1.58 | 0.478 | inactive |
| CG13010 | 1 | 0.611 | -0.935 | -3.25 | inactive |
| CG13010 | 2 | 0.471 | -0.314 | 0.322 | inactive |
